Data: publication PMC9661721, “Structure of the drug target ClpC1 unfoldase in action provides insights on antibiotic mechanism of action” (The Journal of Biological Chemistry, 2022)

Tests used:
[1] = molecular target: the molecule itself; test: cryo-EM structure; apo ClpC1 E288A/F444A/E626A; 3.6 Å; hexamer to protomers
SEC = molecular target: the molecule itself; test: SEC

B1: Mycobacterium tuberculosis ClpC1 E288A/F444A/E626A (enzyme)
chain: not shown
notes: also called MtbClpC1_(E288A/F444A/E626A); MtbClpC1 F444A E288A E626A
stoichiometry N [1]: 6

B2: Mycobacterium tuberculosis ClpC1, wild type (enzyme)
chain: not shown
notes: ClpC1 AAA+ unfoldase of Mycobacterium tuberculosis; NTD, D1, middle domain and D2; the UniProt entry is printed in the AlphaFold link; also called WT ClpC1; ClpC1WT
binding result (SEC): binds

B3: Mycobacterium tuberculosis ClpC1 F444A (enzyme)
chain: not shown
notes: also called MtbClpC1 F444A; F444A mutant
stoichiometry N (SEC): 6
